Measured values published in patent US20220228161A1 (published 2022).

Biological target: gp41 peptide […]
Assay: SPR

| Substance | Kd [µM] |
| --- | --- |
| 2F5 cleaved | 0.163 |
| 2F5 intact | 0.006 |
